Patent US20220089698A1, “ANTIBODIES THAT TARGET HIV GP120 AND METHODS OF USE” (published 2022)
Substitutions are numbered along the chain they refer to.

B1: 3-1 (antibody, human IgG1, kappa)
heavy: QVQLLQSGAAVTKPGASVRVSCEASGYNIRDYFIHWWRQAPGQGLQWVGWINPKTGQPNNPRQFQGRVSLTRHASWDFDTFSFYMDLKALRSDDTAVYFCARQRSDYWDFDVWGSGTQVTVSSASTKGPSVFPLAPSSKSTSGGTAALGCLVKDYFPEPVTVSWNSGALTSGVHTFPAVLQSSGLYSLSSVVTVPSSSLGTQTYICNVNHKPSNTKVDKKVEPKSCDKTHTCPPCPAPELLAGPDVFLFPPKPKDTLMISRTPEVTCVVVDVSHEDPEVKFNWYVDGVEVHNAKTKPREEQYNSTYRVVSVLTVLHQDWLNGKEYKCKVSNKALPLPEEKTISKAKGQPREPQVYTLPPSREEMTKNQVSLTCLVKGFYPSDIAVEWESNGQPENNYKTTPPVLDSDGSFFLYSKLTVDKSRWQQGNVFSCSVLHEALHSHYTQKSLSLSPGK
light: not shown
B2: 1.1.64-1 (antibody, human IgG1, kappa)
heavy: B1 heavy
light: not shown
B3: 3.1.8-1 (antibody, human IgG1, kappa)
heavy: B1 heavy
light: not shown
B4: 1.1.67-1 (antibody, human IgG1, kappa)
heavy: B1 heavy
light: not shown
B5: 1.1.115-1 (antibody, human IgG1, kappa)
heavy: B1 heavy
light: not shown
B6: 3.1.10-1 (antibody, human IgG1, kappa)
heavy: B1 heavy
light: not shown
B7: 1.1.116-1 (antibody, human IgG1, kappa)
heavy: B1 heavy
light: not shown
B8: 3.1.11-1 (antibody, human IgG1, kappa)
heavy: B1 heavy
light: not shown
B9: 1.1.10-1 (antibody, human IgG1, kappa)
heavy: B1 heavy
light: not shown
B10: 3.1.14-1 (antibody, human IgG1, kappa)
heavy: B1 heavy
light: not shown
B11: 3.1.5-1 (antibody, human IgG1, kappa)
heavy: B1 heavy
light: not shown
B12: 1.1.42-1 (antibody, human IgG1, kappa)
heavy: B1 heavy
light: not shown
B13: 3.1.2-1 (antibody, human IgG1, kappa)
heavy: B1 heavy
light: not shown
B14: 1.1.75-1 (antibody, human IgG1, kappa)
heavy: B1 heavy
light: not shown
B15: 1.44.1-1 (antibody, human IgG1, kappa)
heavy: B1 heavy with N28K
light: not shown

How the values were obtained:
Test in all cases: cell-based or functional assay
[1] = biological target: HIV-1 envelope glycoprotein (gp120) of virus 7141 (HIV-1)
[2] = biological target: HIV-1 envelope glycoprotein (gp120) of virus VS001 (HIV-1)
[3] = biological target: HIV-1 envelope glycoprotein (gp120) of virus 92US727 (HIV-1)

Binder	Neutralization IC50 [1]	Neutralization IC50 [2]	Neutralization IC50 [3]
B1	4.03 µg/mL	0.1 µg/mL	3.92 µg/mL
B2	0.64 µg/mL	0.05 µg/mL	0.55 µg/mL
B3	3.51 µg/mL	0.11 µg/mL	1.15 µg/mL
B4	3.76 µg/mL	0.15 µg/mL	8.1 µg/mL
B5	10.1 µg/mL	0.75 µg/mL	> 50 µg/mL
B6	44.8 µg/mL	2.24 µg/mL	> 50 µg/mL
B7	14.6 µg/mL	0.44 µg/mL	> 36 µg/mL
B8	8.7 µg/mL	0.57 µg/mL	> 44 µg/mL
B9	5.43 µg/mL	0.17 µg/mL	45 µg/mL
B10	6.42 µg/mL	0.19 µg/mL	> 27 µg/mL
B11	9.8 µg/mL	0.23 µg/mL	> 17 µg/mL
B12	> 50 µg/mL	0.9 µg/mL	> 50 µg/mL
B13	21.9 µg/mL	0.73 µg/mL	> 50 µg/mL
B14	11.3 µg/mL	0.5 µg/mL	> 50 µg/mL
B15	1.43 µg/mL	0.13 µg/mL	–
